Measurements reported in patent CN110498854A, “一种抗金黄色葡萄球菌肠毒素b的抗体及其应用” (UNIV ARMY MEDICAL, dated 2019).

Tests used:
[1] = target: T1, 突变型金黄色葡萄球菌肠毒素B mSEB(L45R,Y89A,Y94A) (Staphylococcus aureus (ATCC BAA-1556))
[2] = target: T1, 突变型金黄色葡萄球菌肠毒素B mSEB(L45R,Y89A,Y94A); remark: listed apart in the source

B1: 全人源SEB单克隆抗体M0313 (antibody, V domains shown)
VH: EVQLVQSGGGLVQPGGSLRLSCAASGFTLSNYGMSWVRQSPGKGLEWVSGISGGSGSTCYADFVKGRFTISRDKSKNTLSLEMNSLRAEDRAVYYCAKDREYYNSGYYYFPYQYAMDVWGQGTTVTVSS
VL: QSVLTQPPSASGTPGQRVTISCSGGRPNIGGNSVYWYQQFPGTSPKLLIYTNDQRPSGVPDRFSGSKSGTSASLAISGLRSEDEADYYCAAWDDSLSAYVFGAGTKVTVL
EC50 [1]: 4.9 ng/mL | koff [2]: 0.00273 s⁻¹ | kon [2]: 593000 M⁻¹ s⁻¹
